Assay results from ChEMBL document CHEMBL1135602 (J Med Chem, 2002).

Amino acid sequences for entries named in this document (tags omitted).
UniProt P13922, whole entry, looked up, stated change not applied: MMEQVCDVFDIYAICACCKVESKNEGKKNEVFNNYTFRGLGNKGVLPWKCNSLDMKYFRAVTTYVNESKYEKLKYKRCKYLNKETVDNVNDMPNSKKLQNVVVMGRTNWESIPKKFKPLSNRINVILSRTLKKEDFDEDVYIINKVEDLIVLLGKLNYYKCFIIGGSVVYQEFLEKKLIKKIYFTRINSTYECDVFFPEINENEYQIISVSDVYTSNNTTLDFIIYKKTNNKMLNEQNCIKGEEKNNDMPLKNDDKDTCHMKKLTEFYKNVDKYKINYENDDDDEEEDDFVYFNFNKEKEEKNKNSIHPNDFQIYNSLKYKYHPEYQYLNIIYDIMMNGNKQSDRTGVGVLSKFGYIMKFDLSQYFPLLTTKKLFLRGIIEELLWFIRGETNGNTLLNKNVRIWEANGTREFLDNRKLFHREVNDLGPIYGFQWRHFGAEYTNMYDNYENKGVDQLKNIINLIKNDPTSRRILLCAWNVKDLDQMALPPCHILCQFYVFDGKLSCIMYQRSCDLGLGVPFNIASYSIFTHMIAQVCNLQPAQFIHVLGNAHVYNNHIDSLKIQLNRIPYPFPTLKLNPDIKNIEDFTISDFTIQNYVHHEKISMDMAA

How the values were obtained:
[1] = tested on: Bifunctional dihydrofolate reductase-thymidylate synthase (Plasmodium falciparum K1), P13922 [UNDEFINED MUTATION]; experiment: Ratio of Inhibition of the S108N mutant of dihydrofolate reductase (DHFR) to inhibition of wild type dihydrofolate reductase.
[2] = tested on: Bifunctional dihydrofolate reductase-thymidylate synthase (Plasmodium falciparum K1), P13922 [UNDEFINED MUTATION]; experiment: Ratio of Inhibition of the C59R+S108N mutant of dihydrofolate reductase (DHFR) to inhibition of wild type dihydrofolate reductase.
[3] = molecular target: Bifunctional dihydrofolate reductase-thymidylate synthase (Plasmodium falciparum K1) (UniProt P13922); experiment: Inhibition of mutant C59R+S108N dihydrofolate reductase (DHFR) relative to Pyr
[4] = molecular target: Bifunctional dihydrofolate reductase-thymidylate synthase (Plasmodium falciparum K1) (UniProt P13922); experiment: Inhibition of mutant S108N dihydrofolate reductase (DHFR) relative to Pyr
[5] = molecular target: Bifunctional dihydrofolate reductase-thymidylate synthase (Plasmodium falciparum K1, UniProt P13922, S108N); experiment: Inhibition of the S108N mutant of dihydrofolate reductase (DHFR)
In short: (§1)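 Assay at 25 °C: 50 mM TES pH 7.0, 75 mM β-mercaptoethanol, 1 mg/mL BSA, 100 µM H2folate and 100 µM NADPH. NADPH oxidation followed at 340 nm. Ki derived from IC50 as Ki(1+[S]/Km), assuming competitive inhibition.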

[6] = molecular target: Bifunctional dihydrofolate reductase-thymidylate synthase (Plasmodium falciparum K1, UniProt P13922); experiment: Inhibition of the C59R+S108N mutant of dihydrofolate reductase (DHFR); in short: as §1

Compound | Ratio [1] | Ratio [2] | Relative activity [3] | Relative activity [4] | Ki [5] [nM] | Ki [6] [nM]
COc1cc(Cc2cnc(N)nc2N)ccc1OCc1cc(OC)c(OC)c(OC)c1 | 10.3 | 14.5 |  |  |  | 
CCc1nc(N)nc(N)c1-c1ccc(OCc2ccc(Cl)cc2Cl)c(OC)c1 | 20.9 | 42.3 | 0.8 | 0.7 | 20.9 | 42.3
